System: rSEN1998 (RDF-like protein) (Salmonella enterica serovar Enteritidis P125109)
Test: EMSA
Conditions: 10 mM Tris-HCl pH 8.0, 150 mM KCl, 0.1 mM EDTA, 0.5 mM TCEP, 5% glycerol, room temperature, 60 min, recombinant protein, residues 1-72, protein details: N-terminal 6xHis (pET-15b), probe letters rebuilt from the primers and the genome

ATAGAGGCCAAACCCGTCAGTGAGCTTGACGGCCTTTTCCGATGGTCTGGTATTTTTTACTTTGGTATCAGTAAGTGACATGACGGTTCCCTCCGCGTGCTGGTAAAACACAAATCGAACCAGCTTTACCAGCATTTTTACCAGCAAAAGGGTATGGCTTCGAGTGGTTTTTAGTGAACGAGAGTGAACCTGAAGAAGGGAATAACCAGTTGATATAAATGCAGAAAGCAGACGTCAGTGAACGTCTGCTTTCCTTAATTTGGCTCCTCTGACTGGACTCGAACCAGTGACATACGGATTAACAGTCCGCCGTTCTACCGACTGAACTACAGAGGAATCGTGTGAACGGGGCGCATAGTA (double strand) [attL]
binding result (complexes visible from 3.5 uM (0, 0.696, 3.478, 6.956 uM tested), several complexes): binds

TTAAACGTCTCCGGACTCGCCAGGATGTCCCGAAACTAAAATCTGGCTCCTCTGACTGGACTCGAACTTCATCTGTAGCTCCTGCTGTTAGTGGCTTTCAAAAAATGGCGTCTGTTTTTACCATCATATTTACCAGCATTTTTAATGCTGTATTACCATAAAGTCAATTACTATCAATTAGTTATGACAATACACTTCACTGAACCTTACTGAACGATCTTCCTGTGCTGCTATAAATTTTATCTCGTTTATTCAACAGATTACCGCTATTGCCCGATATGTTTCCTCCCGGAAAGATAAGTAAGGGCAGAAGAATACGTTATGACCAATGCTGAGATAGCCAGCCATCTTTATTCCCTTTCTCTATGCTGCTGGATGCGTTAACGTCAATGTAATGAACATCAACATTTTTAGGGAAAAGAATGACAAAAAGATTGCCTGTCGCG (double strand) [attR]
binding result (complexes visible from 0.7 uM (0, 0.696, 3.478, 6.956 uM tested), higher affinity than attL suggested): binds
